Anti-infective test results gathered from many reports (values: NIAID ChemDB through PubChem).

All rows: tests in culture

A number after MIC or MFC names an inhibition level or a share of isolates.

smiles | organism | method | strain or isolate | dose | conditions | read-out | result
FC(F)(F)c1ccc(N2CCCN(c3ccc(Nc4ncnc5ccccc45)cc3)CC2)cc1 | Mycobacterium bovis BCG | luminescence | - | - | - | MIC50 | >50 µM
Cc1ccc(-n2c(=S)oc3ccc(F)cc3c2=S)cc1 | Mycobacterium kansasii | - | 6509/96 | - | 14 d | MIC | 2 µM
CCCCCCc1ccc(NC(=O)NNC(=O)c2ccncc2)cc1 | Mycobacterium kansasii | broth dilution | My 235/80 | - | 21 d | MIC100 | 125 µM
CO[C@@]1(NC(=O)CSCC#N)C(=O)N2C(C(=O)O)=C(CSc3nnnn3C)CS[C@@H]21 | Mycobacterium fortuitum | - | 1030-8 | - | - | MIC | 6.25 µg/mL
CC(C)N=C(N)/N=C(\N)NOCCCOc1cc(Cl)c(Cl)cc1Cl | Mycobacterium avium complex | - | 189 | - | - | MIC | 32 µg/mL
NNC(=O)c1ccncc1 | Mycobacterium kansasii | broth dilution | My 235/80 | - | 21 d | MIC100 | >250 µM
Clc1ccc(CCNc2ncnc3ccsc23)cc1 | Mycobacterium bovis BCG | luminescence | - | - | - | MIC50 | >50 µM
CCc1nc2ccc(Cl)cn2c1C(=O)NCc1ccc(OC2CCC(Oc3ccc(OC(F)(F)F)cc3)CC2)c(F)c1.Cl | Mycobacterium avium | fluorescence | - | 0.15 µM | - | inhibition | 85%
FC(F)(F)Oc1ccc(Oc2ccc(Nc3ncnc4cc(C(F)(F)F)ccc34)cc2)cc1 | Mycobacterium bovis BCG | luminescence | - | - | - | MIC50 | >50 µM
CCCCCCCCCCC(CCCCCCCCCC)OC(=O)NC(CCC(=O)O)(CCC(=O)O)CCC(=O)O | Mycobacterium chelonae | - | EO-P-1 | - | - | MIC | 27 µg/mL
Cc1ccc2oc(=O)n(-c3ccccc3)c(=S)c2c1 | Mycobacterium kansasii | - | My 235/80 | - | 21 d | MIC | 4 µM
CC[C@H]1OC(=O)[C@H](C)[C@@H](O[C@H]2C[C@@](C)(OC)[C@@H](O)[C@H](C)O2)[C@H](C)[C@@H](O[C@@H]2O[C@H](C)C[C@H](N(C)C)[C@H]2O)[C@](C)(O)C[C@@H](C)/C(=N\OC)[C@H](C)[C@@H](O)[C@]1(C)O | Mycobacterium avium complex | - | 20092 (clarithromycin-resistant) | - | - | MIC | >50 µg/mL
CCOc1ccc(N2CCN(c3ccc(CNC(=O)c4c(CC)nc5cc(F)ccn45)cc3F)C[C@@H]2C)cc1.Cl | Mycobacterium avium | fluorescence | - | 0.0071 µM | - | inhibition | 85%
O=C(NCc1ccc(N2CCCC2=O)cc1)c1c(Cl)nc2ccccn12 | Mycobacterium ulcerans | fluorescence | - | - | - | MIC50 | >10 µg/mL
COc1ccn2nc(C)c(C(=O)NCc3cc(F)c(N4CCN(c5ccc(OC(F)(F)F)cc5)[C@@H](C)C4)cc3F)c2c1.Cl | Mycobacterium avium | fluorescence | - | 0.045 µM | - | inhibition | 85%
CC[C@H]1OC(=O)[C@H](C)[C@@H](O[C@H]2C[C@@](C)(OC)[C@@H](O)[C@H](C)O2)[C@H](C)[C@@H](O[C@@H]2O[C@H](C)C[C@H](N(C)C)[C@H]2O)[C@](C)(OC)C[C@@H](C)C(=O)[C@H](C)[C@@H](O)[C@]1(C)O | Mycobacterium avium complex | - | 20092 (clarithromycin-resistant) | - | - | MIC | >50 µg/mL
CCCCCCCCCCCC(CCCCCCCCCCC)OC(=O)NC(CCC(=O)O)(CCC(=O)O)CCC(=O)O | Mycobacterium chelonae | - | EO-P-1 | - | - | MIC | 72 µg/mL
Fc1ccc2oc(=S)n(-c3ccc(Cl)cc3)c(=S)c2c1 | Mycobacterium kansasii | - | 6509/96 | - | 21 d | MIC | 4 µM
FC(F)(F)Oc1cccc(CCNc2ncnc3ccoc23)c1 | Mycobacterium bovis BCG | luminescence | - | - | - | MIC50 | >20 µM
CCCCCc1ccc(NC(=O)NNC(=O)c2ccncc2)cc1 | Mycobacterium kansasii | broth dilution | My 235/80 | - | 14 d | MIC100 | 62.5 µM
CCCCCCCCCC(CCCCCCCCC)OC(=O)NC(CCC(=O)O)(CCC(=O)O)CCC(=O)O | Mycobacterium marinum | - | ATCC 927 | - | - | MIC | 285 µg/mL
CO[C@@]1(NC(=O)Cc2ccccc2)C(=O)N2C(C(=O)[O-])=C(CSc3nnc(C)s3)CSC21 | Mycobacterium fortuitum | - | 1048 | - | - | MIC | 100 µg/mL
O=c1oc2ccc(F)cc2c(=S)n1-c1ccc(C(F)(F)F)cc1 | Mycobacterium kansasii | - | 6509/96 | - | 21 d | MIC | 8 µM
CO[C@H]1/C=C/O[C@@]2(C)Oc3c(C)c(O)c4c(O)c(c5c(c4c3C2=O)NC2(CCN(CC(C)C)CC2)N=5)=NC(=O)/C(C)=C\C=C\[C@H](C)[C@H](O)[C@@H](C)[C@@H](O)[C@@H](C)[C@H](OC(C)=O)[C@@H]1C | Mycobacterium avium intracellulare | - | 12-Feb | - | - | MIC | 0.25 µg/mL
Cc1nc2ccccn2c1C(=O)NCc1ccc(N(C)C)cc1 | Mycobacterium ulcerans | fluorescence | - | - | - | MIC50 | 0.1–1 µg/mL
COc1ccc2oc(=O)n(-c3ccc(C(F)(F)F)cc3)c(=S)c2c1 | Mycobacterium kansasii | - | My 235/80 | - | 21 d | MIC | 62.5 µM
CCCCCCCCCCCCCCCCCC(=O)NC(CCC(=O)O)(CCC(=O)O)CCC(=O)O | Mycobacterium abscessus | - | AAy-P-1 | - | - | MIC | 144 µg/mL
Cc1ccc2oc(=O)n(-c3cccc(F)c3)c(=S)c2c1 | Mycobacterium kansasii | - | My 235/80 | - | 21 d | MIC | 32 µM
CCCCNNC(=O)O[C@H]1[C@H](O[C@@H]2[C@@H](C)[C@H](O[C@H]3C[C@@](C)(OC)[C@@H](OC(C)=O)[C@H](C)O3)[C@@H](C)C(=O)O[C@H](CC)[C@@](C)(O)[C@H](O)[C@@H](C)/C(=N/OCCCC3CCCCC3)[C@H](C)CC2(C)O)O[C@H](C)C[C@@H]1N(C)C | Mycobacterium avium complex | - | 20039 (clarithromycin-susceptible) | - | - | MIC | 0.78 µg/mL
Cc1cn2c(C(=O)NCc3ccc(N4CCC(c5ccc(OC(F)(F)F)cc5)CC4)c(Cl)c3)c(C)nc2s1.Cl | Mycobacterium avium | fluorescence | - | 0.35 µM | - | inhibition | 85%
CO[C@@]1(NC(=O)Cc2cccs2)C(=O)N2C(C(=O)O)=C(COC(N)=O)CS[C@@H]21 | Mycobacterium fortuitum | - | 1059 | - | - | MIC | 50 µg/mL
CC(C)(C)c1ccc(CCNc2ncnc3sccc23)cc1 | Mycobacterium bovis BCG | luminescence | - | - | - | MIC50 | >20 µM
CCCCCCCCCN(CCCCCCCCC)C(=O)NC(CCC(=O)O)(CCC(=O)O)CCC(=O)O | Mycobacterium marinum | - | ATCC 927 | - | - | MIC | 35 µg/mL
CCCCCCCc1ccc(NC(=O)NNC(=O)c2ccncc2)cc1 | Mycobacterium avium | broth dilution | MY330/88 | - | 21 d | MIC100 | 62.5 µM
CCOc1ccc(N2CCN(c3ccc(CNC(=O)c4c(CC)nc5cc(F)ccn45)cc3F)C[C@@H]2C)cn1.Cl | Mycobacterium avium | fluorescence | - | 0.012 µM | - | inhibition | 85%
COc1ccc2oc(=S)n(-c3ccc(Cl)c(Cl)c3)c(=S)c2c1 | Mycobacterium kansasii | - | 6509/96 | - | 14 d | MIC | 32 µM
CCCCCCCCO/N=C1\[C@H](C)CC(C)(O)[C@H](O[C@@H]2O[C@H](C)C[C@H](N(C)C)[C@H]2O)[C@@H](C)[C@H](O[C@H]2C[C@@](C)(OC)[C@@H](OC(C)=O)[C@H](C)O2)[C@@H](C)C(=O)O[C@H](CC)[C@@](C)(O)[C@H](O)[C@H]1C | Mycobacterium avium complex | - | 20096 (clarithromycin-resistant) | - | - | MIC | 1.56 µg/mL
Fc1ccc(N2CCN(c3ccc(Nc4ncnc5ccccc45)cc3)CC2)cc1 | Mycobacterium bovis BCG | luminescence | - | - | - | MIC50 | >50 µM
C[C@@H](O)[C@H]1C(=O)N2C(C(=O)O)=C(SCCN=CN)C[C@H]12 | Mycobacterium fortuitum | - | 1260 | - | - | MIC | 1.56 µg/mL
COC(=O)c1ccc2c(Nc3ccc(Oc4ccc(C(F)(F)F)cc4)cc3)ncnc2c1 | Mycobacterium bovis BCG | luminescence | - | - | - | MIC50 | >10 µM
CCCCCCCNC(=O)NNC(=O)c1ccncc1 | Mycobacterium kansasii | broth dilution | My 6509/96 | - | 14 d | MIC100 | 62.5 µM
Fc1ccc2oc(=S)n(-c3ccc(C(F)(F)F)cc3)c(=S)c2c1 | Mycobacterium kansasii | - | 6509/96 | - | 21 d | MIC | 8 µM
Cc1ccn2c(C(=O)NCc3ccc(C4CCN(c5ccc(OCCF)cc5)CC4)c(F)c3)c(C)nc2c1 | Mycobacterium avium | fluorescence | - | 0.048 µM | - | inhibition | 85%
CC[C@H]1OC(=O)[C@H](C)[C@@H](O[C@H]2C[C@@](C)(OC)[C@@H](OC(C)=O)[C@H](C)O2)[C@H](C)[C@@H](O[C@@H]2O[C@H](C)C[C@H](N(C)C)[C@H]2OC(=O)NNC)C(C)(O)C[C@@H](C)/C(=N\OCCCC2CCCCC2)[C@H](C)[C@@H](O)[C@]1(C)O | Mycobacterium avium complex | - | 20096 (clarithromycin-resistant) | - | - | MIC | 3.13 µg/mL
O=C(NNC(=O)c1ccncc1)Nc1ccc(F)c(Cl)c1 | Mycobacterium kansasii | broth dilution | My 6509/96 | - | 7 d | MIC100 | >125 µM
CCc1nc2cc(F)ccn2c1C(=O)NCc1ccc(C2CCN(c3ccc(OCC(F)(F)F)nc3)CC2)cc1F.Cl | Mycobacterium avium | fluorescence | - | 0.026 µM | - | inhibition | 85%
FS(F)(F)(F)(F)c1ccc(CCNc2ncnc3ccccc23)cc1 | Mycobacterium bovis BCG | luminescence | - | - | - | MIC50 | >20 µM
CO[C@H]1/C=C/O[C@@]2(C)Oc3c(C)c(O)c4c(=O)c(c5oc6cc(N7CCN(CC(C)C)CC7)cc(=O)c6nc5c4c3=C2O)NC(=O)/C(C)=C\C=C\[C@H](C)[C@H](O)[C@@H](C)[C@@H](O)[C@@H](C)[C@H](OC(C)=O)[C@@H]1C | Mycobacterium ulcerans | - | ATCC 19423 | - | - | MBC | 0.025 µg/mL
CC(Cc1ccc(C(C)(C)C)cc1)Nc1ncnc2ccccc12 | Mycobacterium bovis BCG | luminescence | - | - | - | MIC50 | >20 µM
CC[C@H]1OC(=O)[C@H](C)[C@@H](OC(=O)CC2CCCCC2)[C@H](C)[C@@H](O[C@@H]2O[C@H](C)C[C@H](N(C)C)[C@H]2O)C(C)(O)C[C@@H](C)/C(=N\OCCCOc2ccccc2)[C@H](C)[C@@H](O)[C@]1(C)O | Mycobacterium avium complex | - | 20092 (clarithromycin-resistant) | - | - | MIC | 12.5 µg/mL
Fc1ccc2c(NCCc3ccccc3)ncnc2c1 | Mycobacterium bovis BCG | luminescence | - | - | - | MIC50 | >50 µM
Cc1ccc2oc(=S)n(-c3ccccc3)c(=S)c2c1 | Mycobacterium kansasii | - | My 235/80 | - | 21 d | MIC | 4 µM
FC(F)(F)c1ccc(-c2ccc(CNc3ncnc4ccccc34)cc2)nc1 | Mycobacterium bovis BCG | luminescence | - | - | - | MIC50 | >20 µM
CN1CCN(c2ccc(CNC(=O)c3c(Cl)nc4ccccn34)cn2)CC1 | Mycobacterium ulcerans | fluorescence | - | - | - | MIC50 | >10 µg/mL
CC(C)(C)c1ccc(CCNc2ncnc3ccccc23)cc1 | Mycobacterium bovis BCG | luminescence | - | - | - | MIC50 | >20 µM
CCCCCCCCCCCCCCCCCCC(=O)NC(C)(CCC(=O)O)CCC(=O)O | Mycobacterium chelonae | - | EO-P-1 | - | - | MIC | 9 µg/mL
Fc1ccc(Oc2ccc(CNc3ncnc4sccc34)cc2)cc1 | Mycobacterium bovis BCG | luminescence | - | - | - | MIC50 | >20 µM
Cc1nc2ccc(C#N)cn2c1C(=O)NCc1ccc(N2CCN(c3ccc(OC(F)(F)F)cc3)[C@@H](C)C2)c(F)c1.Cl | Mycobacterium avium | fluorescence | - | 0.5 µM | - | inhibition | 85%
Cc1ccc2ncnc(NCCc3ccc(OC(F)(F)F)cc3)c2c1 | Mycobacterium bovis BCG | luminescence | - | - | - | MIC50 | >20 µM
O=C(NCc1ccc(CN2CCCCC2)cc1)c1c(Cl)nc2ccccn12 | Mycobacterium ulcerans | fluorescence | - | - | - | MIC50 | >10 µg/mL
Fc1ccc2c(Nc3ccc(Br)cn3)ncnc2c1 | Mycobacterium bovis BCG | luminescence | - | - | - | MIC50 | >20 µM
CCCCCCCCCCCCCCCCNC(=O)NC(CCC(=O)O)(CCC(=O)O)CCC(=O)O | Mycobacterium chelonae | - | EO-P-1 | - | - | MIC | 18 µg/mL
FC(F)(F)c1cccc(Oc2ccc(CNc3ncnc4ccccc34)cc2)c1 | Mycobacterium bovis BCG | luminescence | - | - | - | MIC50 | >20 µM
O=C(NCc1ccc(-n2ccnc2)cc1)c1c(Cl)nc2ccccn12 | Mycobacterium ulcerans | fluorescence | - | - | - | MIC50 | >10 µg/mL
FC(F)(F)c1ccc(Oc2ccc(Nc3ncnc4nc[nH]c34)cc2)cc1 | Mycobacterium bovis BCG | luminescence | - | - | - | MIC50 | >20 µM
CO[C@@]1(NC(=O)CCCC(N)C(=O)O)C(=O)N2C(C(=O)O)=C(COC(C)=O)CSC21 | Mycobacterium fortuitum | - | 1047 | - | - | MIC | >100 µg/mL
FC(F)(F)c1ccc(CCNc2ncnc3ccsc23)cc1 | Mycobacterium bovis BCG | luminescence | - | - | - | MIC50 | >50 µM
CCc1nc(N)nc(N)c1-c1ccc(Cl)cc1 | Mycobacterium avium complex | - | 9141 | - | - | MIC | 32 µg/mL
Fc1ccc2c(Nc3ccc(-c4ccc(C(F)(F)F)cc4)cc3)ncnc2c1 | Mycobacterium bovis BCG | luminescence | - | - | - | MIC50 | >20 µM
CC[C@H]1OC(=O)[C@H](C)[C@@H](O[C@H]2C[C@@](C)(OC)[C@@H](OC(C)=O)[C@H](C)O2)[C@H](C)[C@@H](O[C@@H]2O[C@H](C)C[C@H](N(C)C)[C@H]2OC(=O)NN2CCCCC2)C(C)(O)C[C@@H](C)/C(=N\OCCCC2CCCCC2)[C@H](C)[C@@H](O)[C@]1(C)O | Mycobacterium avium complex | - | 20092 (clarithromycin-resistant) | - | - | MIC | 3.13 µg/mL

Two numbers with a dash give a range or band. Lines come from different laboratories, so protocols vary. Inhibition is in % at the dose shown (toxicity tests: loss of growth or viability). An empty or dashed field is not shown.